{"source": "PubChem BioAssay AID624099 (ICCB-Longwood, 2012)", "purpose": "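Host factors E2 relies on to silence an HPV18 LCR reporter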 (primary screen)", "cell system": "human C33A cervical carcinoma cells (HPV-negative) stably expressing BPV1 E2 and an HPV18 LCR luciferase reporter", "reagent": "siRNA pool against human genes, 40 nM", "time to read-out": "72 h", "read-out": "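HPV18 LCR reporter light per well, converted to plate-wise z-scores that exclude control wells, and averaged over triplicate plates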", "scale": "mean z-score and z-score: higher = stronger reporter signal, weaker E2 silencing", "active means": "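Hit if mean z-score reaches 2 and two or more of three replicate z-scores also reach 2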", "note": "In all, the deposit lists about 21,000 reagents; shown is a part drawn at random. 497 of them (2.4%) were called active. 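Higher z means weaker E2 silencing; only reporter increases were scored, and knock-downs that hurt cell survival may mask genuine repressor factors.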 Reagent sequences are not shown."}
{"gene": "ANG (angiogenin)", "mean z-score": 1.11, "z-score, replicate A": 0.73, "z-score, replicate B": 1.36, "z-score, replicate C": 1.23, "Call": "inactive"}
{"gene": "TNN (tenascin N)", "mean z-score": -0.2, "z-score, replicate A": -0.69, "z-score, replicate B": -0.07, "z-score, replicate C": 0.17, "Call": "inactive"}
{"gene": "LOC390551 (retired record)", "mean z-score": 0.03, "z-score, replicate A": -0.5, "z-score, replicate B": 0.25, "z-score, replicate C": 0.35, "Call": "inactive"}
{"gene": "STOX1 (storkhead box 1)", "mean z-score": 0.49, "z-score, replicate A": 0.35, "z-score, replicate B": 0.74, "z-score, replicate C": 0.38, "Call": "inactive"}
{"gene": "SLC25A38", "mean z-score": 1.22, "z-score, replicate A": 1.11, "z-score, replicate B": 1.51, "z-score, replicate C": 1.04, "Call": "inactive"}
{"gene": "SDK1 (sidekick cell adhesion molecule 1)", "mean z-score": -0.04, "z-score, replicate A": -0.35, "z-score, replicate B": 0.45, "z-score, replicate C": -0.23, "Call": "inactive"}

Next part (2 carried over from the part before).
{"gene": "SLC25A38", "mean z-score": 1.22, "z-score, replicate A": 1.11, "z-score, replicate B": 1.51, "z-score, replicate C": 1.04, "Call": "inactive"}
{"gene": "SDK1 (sidekick cell adhesion molecule 1)", "mean z-score": -0.04, "z-score, replicate A": -0.35, "z-score, replicate B": 0.45, "z-score, replicate C": -0.23, "Call": "inactive"}
{"gene": "TNRC18 (trinucleotide repeat containing 18)", "mean z-score": 2.2, "z-score, replicate A": 1.97, "z-score, replicate B": 2.11, "z-score, replicate C": 2.51, "Call": "active"}
{"gene": "BPGM (bisphosphoglycerate mutase)", "mean z-score": 1.71, "z-score, replicate A": 1.86, "z-score, replicate B": 1.55, "z-score, replicate C": 1.71, "Call": "inactive"}
{"gene": "PRAMEF15 (PRAME family member 15)", "mean z-score": -0.63, "z-score, replicate A": -0.43, "z-score, replicate B": -0.97, "z-score, replicate C": -0.5, "Call": "inactive"}
{"gene": "APOBEC3G (apolipoprotein B mRNA editing enzyme catalytic subunit 3G)", "mean z-score": 0.96, "z-score, replicate A": 0.91, "z-score, replicate B": 0.74, "z-score, replicate C": 1.24, "Call": "inactive"}
{"gene": "ZCCHC7 (zinc finger CCHC-type containing 7)", "mean z-score": 1.46, "z-score, replicate A": 1.58, "z-score, replicate B": 1.2, "z-score, replicate C": 1.61, "Call": "inactive"}
{"gene": "CFAP77 (cilia and flagella associated protein 77)", "mean z-score": 1.27, "z-score, replicate A": 1.28, "z-score, replicate B": 1.48, "z-score, replicate C": 1.05, "Call": "inactive"}
